The list shows a part of the results, in another mix than the full data. Some structures show a salt or complex split into parts, the way the source records it. Active and inactive are the calls of the source. Cut-off read from the data, not from the text of the source: active = max response mostly above about 13% (no sharp cut-off); inactive = mostly below about 14%.

The nature of this assay: Cycloheximide Counterscreen for Small Molecule Inhibitors of Shiga Toxin. Note: read at 38.3 µM for the half of the compounds with a filed dose; 0% is about no effect. The conditions noted are these: cell reporter, cycloheximide protein synthesis inhibition counterscreen; hits give high values. In general terms: The purpose of a counterscreen is to sort out artefacts and off-target activity.
Turning to `COc1ccc2c(c1O)-c1c(O)c(OC)cc3c1[C@H](C2)[N+](C)(C)CC3.O=[N+]([O-])c1cc([N+](=O)[O-])c([O-])c([N+](=O)[O-])c1[O-]`, the max response is inactive: -5.06%. The same measure for `O=C(OC1CN2CCC1CC2)c1ccc([N+](=O)[O-])cc1` (configuration not stated): inactive: -2.34%; for `CCCOc1ccc(C(=O)NCC2(N(C)C)CCCCC2)cc1OC`: inactive: -5.24%; for `COc1ccc(CN(CCCl)CCCl)cc1Cl`: inactive: 8.71%.

For the compound `CN(C)c1cccc(C(=O)NCC2(N3CCCCC3)CCCCC2)c1`, the max response was inactive: -4.27%. For the compound `O=[N+]([O-])c1cc([N+](=O)[O-])c(OC2CCCCC2O)c([N+](=O)[O-])c1` (configuration not stated), the max response was inactive: 0.771%. With `COc1cc(OC)c(C(=O)NCC2(N(C)C)CCCCC2)cc1OC`, the max response was inactive: 1.18%. Regarding `N/C(=N\O)c1c(N)no[n+]1[O-]`, the max response was inactive: -10.2%. In the case of `CCOC(=O)N1CCC(Nc2ccc(C)cc2)CC1`, the max response was inactive: 1.29%.

Regarding `O=C(OC1CN2CCC1CC2)C1c2ccccc2C=Cc2ccccc21` (configuration not stated), the max response is inactive: -3.85%. Turning to `O=C(O)c1cccc(Nc2c([N+](=O)[O-])cc([N+](=O)[O-])cc2[N+](=O)[O-])c1`, the max response was inactive: -5.55%. The same measure for `COc1ccc(C(=O)NCC2(N3CCOCC3)CCCCC2)cc1OC`: inactive: -6.41%; for `c1ccc(CN2CCC(Nc3ccccc3)CC2)cc1`: inactive: -0.713%.

For `CCCN1CCC(Nc2cc(OC)cc(OC)c2)CC1`, the max response is inactive: -1.21%. Regarding `CN(C)C1(CNC(=O)c2cccc(C#N)c2)CCCCC1`, the max response was inactive: 1.34%. As to `CC(C)(C)OC(=O)N1CCC(N(C(=O)c2ccccc2)c2ccc(Cl)cc2)CC1`, the max response was inactive: -3.3%. The same measure for `N#Cc1ccc(C(=O)NCC2(N3CCCCC3)CCCCC2)cc1`: inactive: 0.691%.

As to `CCOC(=O)C(CC)C1=NC(C)(C)Cc2ccccc21.O=[N+]([O-])c1cc([N+](=O)[O-])c(O)c([N+](=O)[O-])c1` (configuration not stated), the max response was inactive: -2.74%. Consider `CCN1CCC(Nc2cccc(F)c2)CC1`, for which the max response is inactive: -5.83%. Turning to `CN(C)c1ccc(C(=O)NCC2(N3CCCCC3)CCCCC2)cc1`, the max response was inactive: -1.76%.

As to `COc1cc(OC)cc(C(=O)NCC2(N3CCCCC3)CCCCC2)c1`, the max response is inactive: -5.72%. As to `Fc1ccccc1NC1CCN(Cc2ccccc2)CC1`, the max response was inactive: -5.81%.

With `CCC(CO)(C(=O)OC1CN2CCC1CC2)c1ccccc1` (configuration not stated), the max response is inactive: 1.52%. With `COc1cccc(C(=O)N(c2cc(C)cc(C)c2)C2CCN(C(=O)OC(C)(C)C)CC2)c1`, the max response is inactive: -2.37%. On to `COc1cc(OC)cc(C(=O)NCC2(N3CCOCC3)CCCCC2)c1`, for which the max response is inactive: -1.86%.

Take `CCCOc1ccc(C)cc1CN(CCCl)CCCl`: the max response was inactive: 11.6%. As to `CN1CCC(Nc2ccc(Cl)cc2)CC1`, the max response was inactive: -1.15%. With `CCOc1ncccc1C(=O)NCC1(N2CCOCC2)CCCCC1`, the max response is inactive: 9.55%. `CN1CCC(Nc2ccc(F)c(Cl)c2)CC1`: the max response was inactive: -2.58%.

As to `CCCOc1ccc(C(=O)NCC2(N(C)C)CCCCC2)cc1`, the max response was inactive: -0.471%. `CC(C)(C)OC(=O)N1CCC(Nc2ccccc2)CC1`: the max response was inactive: -1.72%. Take `O=C(O)C1(Nc2ccccc2)CCN(Cc2ccccc2)CC1`: the max response is inactive: 0.984%.

The values above are taken from PubChem BioAssay AID2314 (National Center for Advancing Translational Sciences (NCATS), 2010).
